This is an account of results in PMC9674292.

The target of the test is 6xHis-tagged SNAP-ΔNS-VopF (V. cholerae).

The substance “Skeletal actin (rabbit skeletal muscle) (from UniProt P68135 1-377) (natural protein)” gave an elongation rate of filaments at surface-anchored 6xHis-SNAP-ΔNS-VopF from 10 μM unlabeled actin monomers with 15 μM PFN (mf-TIRFM) of 25.3 subunits/s.
